In paper PMC6135763 (Nature Communications, 2018) one finds Kd data, which are given here for 1 substance.

Experiment [1] concerns the target GST-HeV W (C-terminal NLS domain of Hendra virus W protein, residues 409–448, GST fusion) (Hendra virus) (UniProt P0C1C6). The experiment in a line: ELISA.
The target in experiment [2] is GST-NiV W (C-terminal NLS domain of Nipah virus W protein, residues 411–450, GST fusion) (Nipah virus) (UniProt P0C1C7). The experiment in a line: ELISA.

For “Importin α1ΔIBB (residues 71–529) (from UniProt P52292 71-529) (domain or fragment)”, the Kd is 1400 nM in experiment [1] and 1500 nM in experiment [2].
